Results from patent publication US6911450B1, “Pyrimidine acyclonucleoside derivatives, preparation method and use thereof” (Universite de Geneve, priority 2001, dated 2005).

Test system: HIV-1 lai strain
Assay: Anti-HIV test on PBMC, viral replication measured by Reverse Transcriptase (RT) activity in culture supernatants
Type: cell-based
Settings: therapeutical index TI50=(CC50/IC50)
Experimental: The object of the screening is to evaluate the antiretroviral activity of the compounds of the present invention and of the Comparative Compounds on the HIV-1 lai strain cultivated on peripheral blood mononucleated cells (PBMC). For this purpose, the test compounds were incubated for seven days (duration of the anti-HIV test) with the PBMC in exponential phase of growth. The ability of the compounds to inhibit the viral replication was then measured in the culture supernatants either by an assay of the “Reverse Transcriptase” (RT) activity with the kit RetroSys TR (INNOVAGEN) or by an assay of the protein P24 with the kit Innotest HIV Antigen mAb Screening (IMMUNOGENETICS). The concentrations of the test compound causing 50 and 90% inhibition of the viral replication were determined. It concerns inhibition concentrations IC50 and IC90, respectively. The PBMC were isolated as described in Ulmer and col., Immunobiology, 166(3), 238-250 (1984) from a healthy donor by a Ficoll gradient (Nicomed Pharma AS). The PBMC were activated with phytohemagglutinine for three days and then cultivated in a 96-well plate, in a base medium (RPMI) supplemented with recombinant human Interleukin-2. Throughout the culture, the cells were maintained at 37° C., in an atmosphere saturated in humidity, and under 5% CO2. The PBMC were pre-treated for one hour in the presence of the test compounds at various concentrations, and then infected with 100 TCID50 of HIV-1-Lai [S. Wain-Hobson and col., Science 17, 252 (5008): 961-965 (1991)]. Three days after the infection with HIV-1, the half of the culture medium was changed and, at the day 7, the supernatants were taken and frozen at −20° C. Then, the viral replication was measured: a) by assaying the “Reverse Transcriptase” (RT) activity in the culture supernatants by means of the kit RetroSys (Innovagen). The RT contained in the supernatant synthesizes, in the presence of bromodeoxyuridine triphosphate (BrdUTP), a complementary strand DNA to a matrix immobilized on the bottom of the wells of a 96-well plate. The incorporation of BrdU is quantified by the fixation of an antibody anti-BrdU conjugated to the alkaline phosphatase. The activity of the attached alkaline phosphatase, measured by colorimetry, is proportional to the RT activity in the culture supernatant. The results described below are the results of at least two experiments which are distinct and carried out in triplicate.

SMILES	TI50
CCc1c(Cc2cc(C)cc(C)c2)n(COCCN(O)C(N)=O)c(=O)[nH]c1=O [Comparative 1, 1-(2-N^1-hydroxyureidoethyloxymethyl)-6-(3,5-dimethylbenzyl)-5-ethyluracil]	>1.1 × 10^6
CCc1c(Cc2cc(C)cc(C)c2)n(COCCCCN(O)C(N)=O)c(=O)[nH]c1=O [Comparative 2, 1-(4-N^1-hydroxyureidobutyloxymethyl)-6-(3,5-dimethylbenzyl)-5-ethyluracil]	>0.25 × 10^5
CCc1c(Cc2ccccc2)n(COCCN(O)C(N)=O)c(=O)[nH]c1=O [Comparative 3, 1-(2-N^1-hydroxyureidoethyloxymethyl)-6-benzyl-5-ethyluracile]	>3.5 × 10^3
CCOCn1c(Cc2ccccc2)c(C(C)C)c(=O)[nH]c1=O [Comparative 4, 1-ethyloxymethyl-6-benzyl-5-isopropyluracil, reference compound]	>1.5 × 10^4
CCc1c(Cc2cc(C)cc(C)c2)n(COCCCNC(=O)NO)c(=O)[nH]c1=O [Compound 1, 1-(3-N^3-hydroxyureidopropyloxymethyl)-6-(3,5-dimethylbenzyl)-5-ethyl-uracil]	1.13 × 10^5
CCc1c(Cc2cc(C)cc(C)c2)n(COCCCN(O)C(N)=O)c(=O)[nH]c1=O [Compound 2, 1-(3-N1-hydroxyureidopropyloxymethyl)-6-(3,5-dimethylbenzyl)-5-ethyl-uracil]	>10^6
Cc1cc(C)cc(Cc2c(C(C)C)c(=O)[nH]c(=O)n2COCCCN(O)C(N)=O)c1 [Compound 3, 1-(3-N^1-hydroxyureidopropyloxymethyl)-6-(3,5-dimethylbenzyl)-5-isopropyluracil]	7 × 10^9
CC(=O)ON(CCCOCn1c(Cc2cc(C)cc(C)c2)c(C(C)C)c(=O)[nH]c1=O)C(N)=O [Compound 4, 1-(3-N^1-acetoxyureidopropyloxymethyl)-6-(3,5-dimethylbenzyl)-5-isopropyluracile]	10^6
Cc1cc(C)cc(Cc2c(C(C)C)c(=O)[nH]c(=O)n2COCCCN(OC(=O)C(C)(C)C)C(N)=O)c1 [Compound 5, 1-(3-N^1-pivaloyloxyureidopropyloxymethyl)-6-(3,5-dimethylbenzyl)-5-isopropyluracil]	6.5 × 10^10
